Measured values from several laboratories, pooled; numbers as filed in NIAID ChemDB.

All rows: growth or infection tests; organism: Candida albicans; endpoint: MIC

An empty or dashed field is not shown. Two numbers with a dash give a range or band. Conditions beyond the fields shown may differ between rows.

SMILES | strain | value
OC(Cn1cncn1)(Cn1cnc2ccc(C(F)(F)F)cc21)c1ccc(F)cc1F |  | 50–100 µg/mL
N/C(=N\NC(=O)c1ccc(Cl)cc1)SCc1cccc(Cl)c1 |  | >100 µg/mL
OC(c1ccccc1)c1nccn1CC(O)(Cn1cncn1)c1ccc(F)cc1F |  | 25–50 µg/mL
CCCCCCCCCCCC[n+]1ccc(/C=C/C(=O)c2ccc(OC)cc2)cc1 |  | 58.1 µg/mL
Clc1ccc(/C(Cn2ccnc2)=N/OCc2ccccc2)cc1 | CA12 | >128 µg/mL
CCCCCCCCCC#CCCC#CC(=O)O | ATCC 60913 | 11.5 µM
COc1ccc(C(=O)N/N=C(\N)SCc2cccc(Cl)c2)cc1 |  | >100 µg/mL
Fc1ccc(/C(Cn2ccnc2)=N/OCc2ccccc2)cc1 | PR1 | 64 µg/mL
C[C@H]1[C@H](O)[C@@H](C)/C=C/C=C/C=C/C=C/C=C/C=C/C=C/[C@H](O[C@@H]2O[C@H](C)[C@@H](O)[C@H](N)[C@@H]2O)C[C@@H]2O[C@](O)(C[C@@H](O)C[C@@H](O)CC[C@H](O)[C@@H](O)C[C@@H](O)CC(=O)O[C@H]1C)C[C@H](O)[C@H]2C(=O)O | R89-208 | 0.5 µg/mL
N/C(COc1ccc(Cl)cc1)=N/NC(=O)c1ccncc1 | ATCC E10231 | >100 µg/mL
CN1C(=O)/C(=c2/[nH][nH]c(=O)/c2=C\c2ccccn2)C(=O)c2ccccc21 | ATCC 10231 | >100 µg/mL
CCOC(=O)Cc1csc(NC(=O)CSC(=S)N2CCCC2)n1 | ATCC 10231 | 156 µg/mL
O=C(N/N=C(\COc1ccccc1)N=Cc1ccccn1)c1ccncc1 | ATCC E10231 | 100 µg/mL
C=C1/C=C(\C)[C@H](CC)OC(=O)[C@H](C)C(=O)C(O)(CO)C/C(OC)=C/[C@@H](C)C1 | MY1055 | 6.25 µg/mL
CCCCCCCCCCCCC#CCCC#CC(=O)O | ATCC 14053 | 20 µM
O=c1[nH]c2cc(C(F)(F)F)ccc2nc1C(F)(F)F | ATCC 90029 | 8 µg/mL
Clc1ccc(/C(Cn2ccnc2)=N\OCc2ccccc2)cc1 | CDCB385 | 4 µg/mL
CCCCCCCC[n+]1ccc(/C=C/C(=O)c2cccc(OC)c2)cc1 |  | <7.18 µg/mL
Cn1c(=O)c(-c2[nH][nH]c(=O)c2/C=N/c2ncccn2)c(O)c2ccccc21 | ATCC 10231 | >100 µg/mL
O=c1[nH]c2ccc(C(F)(F)F)cc2nc1C(F)(F)F | ATCC 90029 | 8 µg/mL
OC(Cn1cncn1)(Cn1c(Cc2ccccc2)nc2ccccc21)c1ccc(F)cc1F |  | 100–200 µg/mL
Clc1ccc(/C(Cn2ccnc2)=N/Nc2c(Cl)cccc2Cl)s1 | A | 6.2 µg/mL
Cn1c(=O)c(-c2[nH][nH]c(=O)c2C=Nc2ccccc2)c(O)c2ccccc21 | ATCC 10231 | >100 µg/mL
COc1cccc(C(=O)/C=C/c2ccccn2)c1 |  | <7.1 µg/mL
OC(Cn1cncn1)(Cn1ccnc1-c1ccc(Cl)cc1)c1ccc(F)cc1F |  | <3.125 µg/mL
Cn1c(=O)c(-c2[nH][nH]c(=O)c2C=Nc2ccncc2)c(O)c2ccccc21 | ATCC 10231 | 25 µg/mL
N/C(COc1ccccc1Cl)=N/NC(=O)c1ccncc1 | ATCC E10231 | >100 µg/mL
OC(Cn1cncn1)(Cn1ccnc1-c1ccccc1)c1ccc(F)cc1F |  | <3.125 µg/mL
CCCCCCCC[n+]1cccc(/C=C/C(=O)c2ccccc2OC)c1 |  | <7.34 µg/mL
Clc1ccc(/C(Cn2ccnc2)=N/OCc2ccccc2)c(Cl)c1 | 5M | 64 µg/mL
CC1CCCCc2c(O)cccc2/C(=C(O)/C=C/C=C/C=C/C(=O)O)C(=O)O1 |  | >64 µg/mL
COc1ccc(C(=O)/C=C/c2ccncc2)cc1 |  | 15.5 µg/mL
CC(C)=CCc1c(O)c(C)c(O)c2c1O[C@H](c1ccc(O)cc1)CC2=O |  | >100 µg/mL
O=c1[nH]c2cc(C(F)(F)F)ccc2nc1CBr | ATCC 90029 | 15.6–62.5 µg/mL
COc1ccccc1C(=O)/C=C/c1ccccn1 |  | 7.1 µg/mL
CO[C@H]1[C@@H](OC(=O)OCc2ccccc2)[C@H](O)[C@H](OCC23C4C=C(C(C)C)C2(C(=O)O)C(C=O)(C4)[C@@H]2CC[C@@H](C)[C@H]23)O[C@@H]1C | 1208 | 8 µg/mL
C=CCS/C(N)=N/NC(=O)c1ccc(Cl)cc1 |  | >100 µg/mL
Cc1c(O)cccc1C(=O)N[C@@H](CSc1ccccc1)[C@H](O)CN1C[C@H]2CCCC[C@H]2C[C@H]1C(=O)NC(C)(C)C | I107A | 64 µg/mL
COc1cc(C(=O)NNC(N)=S)cc(OC)c1OC |  | >100 µg/mL
CCCCCCCC[n+]1ccc(/C=C/C(=O)c2ccc(OC)cc2)cc1 |  | <6.72 µg/mL
C=CCS/C(N)=N/NC(=O)c1ccc([N+](=O)[O-])cc1 |  | >100 µg/mL
O=C(N/N=C(\COc1ccc(Cl)cc1)N=Cc1cccnc1)c1ccncc1 | ATCC E10231 | >100 µg/mL
CCCCCCCCCC[n+]1cccc(/C=C/C(=O)c2ccc(OC)cc2)c1 |  | <6.8 µg/mL
CC(C)c1nc2ccccc2n1CC(O)(Cn1cncn1)c1ccc(F)cc1F |  | 6.25–12.5 µg/mL
N/C(COc1ccc([N+](=O)[O-])cc1)=N/NC(=O)c1ccncc1 | ATCC E10231 | >100 µg/mL
c1ccc(CO/N=C(/Cn2ccnc2)c2ccccc2)cc1 | 3M | 64 µg/mL
O=[N+]([O-])c1ccc2ncn(CC(O)(Cn3cncn3)c3ccc(F)cc3F)c2c1 |  | 100–200 µg/mL
CCCCCCCCCC[n+]1ccc(/C=C/C(=O)c2ccc(OC)cc2)cc1 |  | <6.87 µg/mL
O=C(N/N=C(\COc1ccccc1)N=Cc1cccnc1)c1ccncc1 | ATCC E10231 | >100 µg/mL
CS/C(N)=N/NC(=O)c1ccc(F)cc1 |  | >100 µg/mL

For reference, 6 entries again:

COc1cc(C(=O)NNC(N)=S)cc(OC)c1OC ; value: >100 µg/mL
OC(Cn1cncn1)(Cn1ccnc1-c1ccccc1)c1ccc(F)cc1F ; value: <3.125 µg/mL
CC1CCCCc2c(O)cccc2/C(=C(O)/C=C/C=C/C=C/C(=O)O)C(=O)O1 ; value: >64 µg/mL
OC(c1ccccc1)c1nccn1CC(O)(Cn1cncn1)c1ccc(F)cc1F ; value: 25–50 µg/mL
N/C(COc1ccccc1Cl)=N/NC(=O)c1ccncc1 ; strain: ATCC E10231 ; value: >100 µg/mL
O=[N+]([O-])c1ccc2ncn(CC(O)(Cn3cncn3)c3ccc(F)cc3F)c2c1 ; value: 100–200 µg/mL